Assay results reported in publication PMC8123576 (International Journal of Molecular Sciences, 2021).

Test system: aflatoxin accumulation by A. flavus
Assay: Aflatoxin accumulation assessment in coconut clarified medium
Assay type: cell-based, Aspergillus flavus

Substance	containment effect on aflatoxin production compared with the ligand (10 to 100 µM)	containment effect on aflatoxin production compared with the ligand (25 µM)
Bis(2-acetylthiophenethiosemicarbazonato) copper(II)	did not differ from the parent compound	–
Bis(2-acetylthiophenethiosemicarbazonato) zinc(II)	did not differ from the parent compound	significant activity decrease
